Reference: PubChem BioAssay AID1259414 (Drosophila RNAi Screening Center, 2018)

Assay: 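Host factors increasing or decreasing Wolbachia levels in cultured fly cells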 (primary screen)
Cell system: Drosophila JW18 cells infected with Wolbachia
Reagent: long dsRNA against Drosophila genes, 0.25 µg dsRNA per well of a 384-well plate
Time to read-out: 5 days
Conditions: cells persistently infected with Wolbachia before knock-down; no added drug
Measurement: 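Automated imaging of bacterial rRNA staining divided by host cell count, reported as plate-normalised robust z-score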
Scale: Wolbachia per cell robust z: higher = more Wolbachia per host cell than the plate typical
Active means: 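Active if absolute robust z reaches 1.5 in two or more of three replicates, leaving out multi- or no-target dsRNAs, genes unexpressed in JW18 and A1 wells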
The screen tested about 24,000 reagents; below is a random part of those with a known target gene and a result. Over the whole deposit, about 1,210 (5%) were called active. 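Inactive calls also include excluded dsRNAs with several or no targets, genes unexpressed in JW18, and well A1, regardless of score.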 A number with no mark means an inactive call. Names joined by + are all predicted targets of the reagent. No sequences are given here.

| target | amplicon | Wolbachia per cell robust z, rep 1 | Wolbachia per cell robust z, rep 2 | Wolbachia per cell robust z, rep 3 |
| --- | --- | --- | --- | --- |
| CG4911 | DRSC10456 | -0.614 | 0.376 | 0.303 |
| Hand | DRSC02656 | 1.4 | -0.275 | -0.896 |
| Cp110 | DRSC20630 | 1.2 | 0.274 | 1.21 |
| Cp110 | DRSC21716 | -2.04 | -0.549 | 0.362 |
| CG3071 | DRSC18526 | -0.53 | -7.39 | 0.346 |
| CG3071 | DRSC26289 | -0.596 | -0.164 | -0.207 |
| Ugt303B2 | DRSC14198 | 0.0604 | -1.08 | 0.538 |
| Ugt303B2 | DRSC22864 | -0.221 | -1.53 | -0.834 |
| Grl36a | DRSC21748 | -1.84 | -1.53 | -0.918 |
| Tcs1 + Polr3K | DRSC05988 | 0.0229 | 0.443 | 0.854 |
| GC2 | DRSC14476 | -0.0234 | -1.69 | -0.201 |
| GC2 | DRSC27370 | 1.58 | 0.953 | 0.035 |
| Sytbeta | DRSC10009 | -0.92 | -0.00143 | 0.733 |
| Sytbeta | DRSC10351 | -0.3 | -1.48 | -0.9 |
| Vti1a | DRSC08563 | 0.195 | -0.391 | -0.649 |
| CG10348 | DRSC23233 | 0.76 | 0.704 | -0.735 |
| CG10348 | DRSC30046 | -0.799 | -0.194 | -0.96 |
| CG14384 | DRSC14842 | -0.673 | -0.148 | 0.425 |
| nAChRalpha5 | DRSC01946 | -6.5 | -2.14 | -2.24 |
| nAChRalpha5 | DRSC01947 | 1.44 | 0.789 | 0.98 |
| nAChRalpha5 | DRSC22785 | -0.0109 | 1.75 | 0.275 |
| nAChRalpha5 | DRSC29085 | -1.57 | -1.1 | -1.52 |
| Rpp30 | DRSC00320 | 1.13 | 0.403 | -1.02 |
| CG7568 | DRSC16259 | -0.188 | 0.823 | 0.652 |
| CG7568 | DRSC28378 | -0.542 (active) | -2.84 | -3.69 |
| CheA56a | DRSC37844 | -0.349 | -3.12 | -0.255 |
| CG8051 | DRSC20077 | 0.000823 | -0.741 | -2.14 |
| CG8051 | DRSC26855 | -2.59 | -0.312 | 0.353 |
| CG34431 | DRSC29884 | 0.0665 | -0.125 | -7.79 |
| CG9072 | DRSC20147 | -0.79 | -0.432 | -4.72 |
| CG7332 | DRSC20038 | -0.828 | -1.17 | 0.514 |
| CG7332 | DRSC28841 | 1.03 | 0.31 | 0.89 |
| CG7332 | DRSC39002 | -0.353 | 0.562 | -0.638 |
| MstProx | DRSC12458 | -1.46 | -2.59 | -1.04 |
| MstProx | DRSC12601 | 1.07 | 0.313 | 0.73 |
| CG42500 | DRSC14822 | 0.758 | -1.7 | -0.0258 |
| CG11159 | DRSC06050 | 0.931 | 1.06 | 0.684 |
| CG4301 | DRSC19886 | 1.2 | -0.899 | 0.923 |
| JMJD6 | DRSC15787 | 0.0282 (active) | -5.52 | -2.26 |
| JMJD6 | DRSC26657 | -0.227 | 0.304 | -0.775 |
| CG34269 | DRSC38855 | -1.74 | -0.61 | 0.398 |
| Eig71Ec | DRSC11150 | -0.0315 | 0.341 | -1.01 |
| mav | DRSC17149 | 1.06 | 0.262 | -3.96 |
| P5cr-2 | DRSC15889 | -2.33 | 1.15 | 1.06 |
| PGRP-SC1b | DRSC07215 | 1.07 | -0.324 | -0.476 |
| IscU | DRSC16572 | 1.21 | 0.541 | -5.36 |
| PolrMT | DRSC00660 | -0.0228 | -0.522 | -0.368 |
| Buffy | DRSC05957 | -0.975 | -0.0242 | -0.225 |
| mRpL3 | DRSC20100 | -0.527 (active) | -1.79 | -4.68 |
| CG4598 | DRSC02763 | -0.526 | 0.0238 | -0.673 |
| Parp16 | DRSC06597 | -0.476 | -0.559 | 0.647 |
| Parp16 | DRSC27048 | -4.6 | 0.443 | -10.9 |
| CG6978 | DRSC18409 | 0.00287 | -0.878 | -0.655 |
| CG5612 | DRSC15844 | 0.743 | -1.57 | -2.18 |
| CG31872 | DRSC02568 | -2.66 | -4.78 | 0.564 |
| CG31872 | DRSC02572 | -0.707 | -1.19 | -0.422 |
| CG17190 | DRSC15184 | -1.52 | 1.29 | 0.553 |
| Ufsp1 | DRSC04958 | 0.795 | -0.0607 | 0.131 |
| Ufsp1 | DRSC27352 | 1.05 | 0.588 | 0.563 |
| CG8679 | DRSC03109 | 0.238 | -0.258 | -0.489 |
| CG11975 | DRSC14452 | -0.127 | 0.546 | -1.72 |
| CG12268 | DRSC14491 | 0.393 | 0.0873 | -0.75 |
| CG12268 | DRSC28755 | -0.162 | -1.96 | 0.0966 |
| CG3770 | DRSC04416 | 0.758 | -2.3 | -0.151 |
| CG14292 | DRSC14772 | 0.559 | 0.318 | 0.964 |
| CG43689 | DRSC18046 | 0.364 | 0.395 | 0.226 |
| CG43689 | DRSC22467 | -1.75 | 0.607 | 0.0865 |
| CG43689 | DRSC23070 | -2.53 | 0.478 | -0.354 |
| CG43689 | DRSC25097 | 0.961 | -0.339 | 1.32 |
| CG43689 | DRSC26563 | 0.155 | -0.164 | -0.6 |

10 entries already listed, ordered by “Wolbachia per cell robust z, rep 3”, low to high.
| target | amplicon | Wolbachia per cell robust z, rep 1 | Wolbachia per cell robust z, rep 2 | Wolbachia per cell robust z, rep 3 |
| --- | --- | --- | --- | --- |
| IscU | DRSC16572 | 1.21 | 0.541 | -5.36 |
| mRpL3 | DRSC20100 | -0.527 (active) | -1.79 | -4.68 |
| mav | DRSC17149 | 1.06 | 0.262 | -3.96 |
| Eig71Ec | DRSC11150 | -0.0315 | 0.341 | -1.01 |
| JMJD6 | DRSC26657 | -0.227 | 0.304 | -0.775 |
| PGRP-SC1b | DRSC07215 | 1.07 | -0.324 | -0.476 |
| PolrMT | DRSC00660 | -0.0228 | -0.522 | -0.368 |
| Buffy | DRSC05957 | -0.975 | -0.0242 | -0.225 |
| CG34269 | DRSC38855 | -1.74 | -0.61 | 0.398 |
| P5cr-2 | DRSC15889 | -2.33 | 1.15 | 1.06 |
